Source: the supplement of paper PMC9931576
Human monoclonal antibodies against the spike receptor-binding domain (heavy:light variable regions). IC50 against pseudoviruses bearing the spike of naturally observed variants; lower = stronger; >10 µg/ml means not reached at the top dose. No active / inactive call. The stated detection limit is 0.0005 µg/ml; values near or below 0.001 µg/ml lie at the floor of the assay.

Assays:
Test in all cases: pseudovirus neutralization IC50; higher = weaker neutralization
[1] = target: SARS-CoV-2 Omicron BA.1 spike pseudovirus
Description: (§1)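 Single-round VSV luciferase pseudovirus mixed with antibody dilutions for 1 h and put on Huh-7 cells for about a day; IC50 from the dose curve.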

[2] = target: SARS-CoV-2 Omicron BA.2 spike pseudovirus
Description: as §1

[3] = target: SARS-CoV-2 Omicron BA.2.75 spike pseudovirus
Description: as §1

[4] = target: SARS-CoV-2 Omicron BA.5 spike pseudovirus
Description: as §1

[5] = target: SARS-CoV-2 Omicron BQ.1.1 spike pseudovirus
Description: as §1

[6] = target: SARS-CoV-2 Omicron XBB spike pseudovirus
Description: as §1

[7] = target: SARS-CoV-2 early D614G spike pseudovirus
Description: as §1

Row | Binder | pseudovirus neutralization IC50 [1] [µg/mL] | pseudovirus neutralization IC50 [2] [µg/mL] | pseudovirus neutralization IC50 [3] [µg/mL] | pseudovirus neutralization IC50 [4] [µg/mL] | pseudovirus neutralization IC50 [5] [µg/mL] | pseudovirus neutralization IC50 [6] [µg/mL] | pseudovirus neutralization IC50 [7] [µg/mL]
1 | BD55-6708 (protein) chain 1: QVQLVESGGGVVQPGRSLRLSCAASGFTFSAYDIHWVRQAPGKGLEWVAVISYDGGIKFYADSVKGRFTISRDNSKNMLYLQMNTLRAEDTAMYYCAKEQTYDTLTGLYYFDQWGQGTLVTVSS chain 2: DIQMTQSPSSLSASVGDSVTITCRASQSISRHLNWYQQKPGKAPKLLIYAASSLQSGVPSRFSGSGSGTDFTLTVSSLQPEDFATYYCQQSFSTPQITFGPGTKVDIK | > 10 | > 10 | > 10 | > 10 | > 10 | > 10 | > 10
2 | BD55-6713 (protein) chain 1: QVQLVQSGAEVKKPGSSVKVSCKASGGTFSRYAISWVRQAPGQGLEWLGGIIPTFATTNYAQKFQGRVTITADESASTAYMELSSLRSGDTAVYYCARTIILQYYDYNGYHYPFDLWGQGTLVTVSS chain 2: EIVLTQSPGTLSLSPGERATLSCRASQSVSSNYLAWYQQKPGQAPSLLIYDTSSRATGIPDRFSGSGSGTDFTLTISRLEPEDFAVYYCQHYGSSPGTFGQGTKLEIK | > 10 | > 10 | > 10 | > 10 | > 10 | > 10 | > 10
3 | BD55-6715 (protein) chain 1: QMQLVQSGPEVKKPGTSVKVSCQASGFTFTSSAVQWVRQARGQRLEWIGWIVVGSGNANYAQKFQGRVAITRDTSTSTASMELSSLRSDDTAVYYCAATDFYQDVMTGHYHLDYYGTDVWGQGTTVTVSS chain 2: QSVLTQPPSASATPGQGITISCSGSSSNIGTNTVNWYRQFPGTAPKLLLYGHNQRPSGVPDRFSGSKSGTSASLAISGLQSEDEADYYCAAWDDTLNAYVFGTGTTVTVL | > 10 | > 10 | > 10 | > 10 | > 10 | > 10 | > 10
4 | BD55-6720 (protein) chain 1: QLQQSGPGLVKPSQTLSLTCAISGDTVSSDSAAWIWIRQSPSRGLQWLGRTYFTSKWHNEYAESVKSRMTIRPDTSRNQFSLQLTSVTHDDTAIYFCARAQRETTCNGARCYSYYYHGMDVWGQGTTVTVSS chain 2: EIVLTQSPGTLSMSPGEEATLSCRASQSVTSTYLAWYQQKHGQAPRLLIYGASSRAPGIPDRFSGSGSGTEFTLTISRLEPEDFAVYHCHHDGSTPPAFGGGTKVEIK | > 10 | > 10 | > 10 | > 10 | > 10 | > 10 | > 10
5 | BD55-6726 (protein) chain 1: QMQLVQSGPEVKRPGTSVKVSCEASGFTFSSSAILWVRQPRGQRLESIGWMAVGGADRNYASRFQERVTLTTDMSTSTAYMELSGLRSEDTAVYYCAAMVRGGWWYFDLWGRGTLVTVSS chain 2: EIVLRQSPATVSLSPGERATLSCRASQSVHNYLAWFQQKPGQAPRLLIYDASTRATDIPAKFSGSGSGTDFTLTIGNLEPEDFAVYYCQQRSDWPWTFGQGTKVEIK | > 10 | > 10 | > 10 | > 10 | > 10 | > 10 | > 10
6 | BD55-1338 (protein) chain 1: QITLKESGPTLVKPTQTLTLTCTFSGFSLTTRGVGVGWIRQPPGKALEWLALIFWNDDNRYSPSLKSRLTITRDTSKNQVVLTMTNMDPVDTGTYYCAHKSRDSELMVYVDDYYFDYWGQGTLVTVSS chain 2: AHELTQPPSVSVSPGQTARITCSGDSLPMQYVYWYQQRPGQAPVVVIYKDSERPSGIPERFSGSTSGTTVTLTITGVQAEDEADYYCQTADSSGTSFGGGTKLTVL | 5.01 | 5.43 | 5.99 | 4.5 | 3.91 | 4.77 | 0.846
7 | BD55-1341 (protein) chain 1: QVTLRESGPALVKPTQTLTLTCTFSGFSLSTTGMCINWIRQPPGKALEWVARIDWNDDKYYSPSLKTRLTISKDTSKNQVVLTMTNMDPVDTATYYCARISTGGYGNYAYFFDYWGQGSLVTVSS chain 2: SYELTQPPSLSVSPRQTARITCSGDAFPKQYAYWYQQKPGQAPVLVIYKDTERPSGIPERFSGSSSGTTVTLTITGVQAEDEADYYCQSADSSAVVFGGGTKLTVL | > 10 | > 10 | > 10 | > 10 | > 10 | > 10 | > 10
8 | BD55-1345 (protein) chain 1: EVQLVESGGGLVQPGGSLRLSCSASGFVFSSYAMHWVRQAPGRGLEYVSSISSNGDSTDYADSVKGRFTISRDNSKNTLFLQMSSLRVEDTAVYYCVKDTLTRWEIFFDYWGQGTLVSVSS chain 2: DIQMTQSPSSLSASVGDRVTITCRASQNINRYLIWYQQKPGKAPNLLIYAASTLQSGVPSRFSGSGSGTDFTLTISSLQPEDFATYYCQQSYTTPPTFGQGTKVEIK | > 10 | > 10 | > 10 | > 10 | > 10 | > 10 | > 10
9 | BD55-1354 (protein) chain 1: EVQLVESGGGLVQPGGSLRLSCVGSGISFSTYSMNWVRQAPGKGLEWVSSISVSSSYIYYADSVKGRFIVSRDNAKNSLYLQLNSLRAEDTAVYYCATDPTVMVQNSFDFWGQGTLVTVSS chain 2: DIQMTQSPSSLSASVGDRVTITCRASQSISSFLNWYQQKPGKAPKLLIYGASSLQSGVPSRFSGSGSGTDFTLTISSLQPEDFATYYCQQSYSTLITFGQGTRLDIK | 0.663 | 0.0861 | 0.618 | > 10 | > 10 | > 10 | 0.0138
10 | BD55-1381 (protein) chain 1: DVQLVESGGGLVRPGGSLRLSCSASGFTFSSYVMHWVRQAPGKGLEYVADISSNGDITYYADSVKGRFTISRDNSKRELYLQMSSLRSEDTAVYYCVKDDLTSMTTLFDYWGQGTLVTVSS chain 2: DIQMTQSPSSLSASVGDSVTLTCRASQTISRFLNWYQQKPGKAPKLLIYDASYLKSGVPSRFSGSGSGTDFILTITSLQPEDFATYYCQQSYTTPVTFGQGTKVEVK | 5.88 | 6.11 | 4.94 | 4.04 | 5.01 | 4.99 | 3
11 | BD55-1396 (protein) chain 1: EVQLVQSGAEVKKPGESLKISCKASGYKFTNYWIAWVRQMPGKGLECMGIIYPDDSDSRYSPSFQGQVTISADKSITTAYLQWGSLKASDTAMYYCARHIRPYCSGDCSTDAFDIWGQGTMVTVSS chain 2: QSVLTQPPSVSAAPGQKVTISCSGSSSNIGNNYVSWYQHLPGTAPKLLIFDNNQRPSGIPDRFSGSKSGTSATLGITGLQTGDEADYYCGTWDSSLNTGVFGGGTKLTVL | > 10 | > 10 | > 10 | > 10 | > 10 | > 10 | > 10
12 | BD55-1398 (protein) chain 1: EVQLVESGGGLVQPGGSLRLSCAASGFTFSSYDMHWVRQSTGKGLEWVSVIGTAGDRYYPDSVKGRFTISRDNAKNSLYLQMNSLGAGDTAMYYCVRGHFDRSGFYSMFDYWGQGTLVIVSS chain 2: DFQMTQSPSSLSASVGDRVTITCRASQTIRNYLNWYQQKPGKAPKLLIYAASSLQSGVPSRFSGSGSGTDFTLTISSLQPEDFATYYCQQSYVSIYTFGQGTTLEIK | > 10 | 8.18 | > 10 | 6.73 | > 10 | > 10 | 1.47
